We go through one molecule from patent US7553652B2, “Process for the preparation of (S)- or (R)-3,3,3-trifluoro-2-hydroxy-2-methylpropionic acid” (Lonza AG, priority 1996, dated 2009).

For the data set, the system named is amidohydrolase. Description: Enzyme characterization with heat-treated cell-free extract. The data set is classed as biochemical, Klebsiella oxytoca PRS1K17 (DSM 11623). To be noted: substrate concentration 32 mM. How it is done: A heat-treated cell-free extract was employed for characterizing the amidase. Cells of Klebsiella oxytoca PRS1K17 (DSM 11623) (OD650=160) were disrupted by passing through a French press at 19000 psi (1309 bar). Benzonase (1 μl×30 ml extract^−1) was added, and the extract was then centrifuged for 1 hour at 20000×g. The supernatant (approx. 20 mg×ml^−1 protein) was heated for 10 minutes at 70° C. and the precipitated protein was then removed by centrifugation. The supernatant (approx. 2.0 mg×ml^−1) was concentrated to 5.0 mg×ml^−1 protein and then stored at −20° C. The heat treatment removed approx. 90% of undesired protein. Up to a protein concentration of 0.5 mg×ml^−1, the reaction rate was in direct proportion to the protein concentration. A protein concentration of 0.2 mg×ml^−1 was therefore routinely employed in the tests. To determine the pH optimum, the concentration of (R,S)-2,2-HTFMPA (substrate) was 0.5% (32 mM) and the temperature was 40° C. The buffers listed in Table 4 were employed in the test.
The effect of the temperature on the reaction was determined in 100 mM CAPS buffer (pH 10.0) at a substrate concentration of 0.5% (32 mM). The effect of the substrate concentration was determined at 60° C. in 100 mM CAPS buffer (pH 10.0), and the effect of methanol at 40 and 60° C. at a substrate concentration of 1% (64 mM) in 100 mM CAPS buffer (pH 10.0). […]

B1: amidohydrolase: (R)-stereospecific amidohydrolase from Klebsiella oxytoca PRS1/PRS1K17, SEQ ID No. 2; tested as heat-treated cell-free extract (protein, listed as Klebsiella oxytoca)
chain: MKWLEESIMAKRGVGAGRKPVTHHLTEEMQKEFHYTIGPYSTPVLTIEPGDRIIVDTRDAFEGAINSEQDIPSQLLKMPFLNPQNGPIMVNGAEKGDVLAVYIESMLPRGVDPYGICAMIPHFGGLTGTDLTAMLNDPLPEKVRMIKLDSEKVYWSKRHTLPYKPHIGTLSVSPEIDSINSLTPDNHGGNMDVPDIGPGSITYPLVRAPGGRLFIGDAHACQGDGEICGTAVEFASITTIKVDLIKNWQLSWPRMENAENIMSIGSARPLEDATRIAYRDLIYWLVEDFGFEQWDAYMLLSQCGKVRLGNMVDPKYTVGAMLNKNLLV
With B1, for the setting “100 mM CAPS buffer pH 10”, the temperature optimum turned out to be 70 °C. This molecule also displayed a pH optimum (100 mM CAPS buffer, 40° C.) of 10±0.5.
